A mixed list of measured activities; the numbers were collected in NIAID ChemDB.

Common to all: tests in culture; agent: HIV-1; cells: MT-4; read-out: EC50

Rows are shuffled and stem from different studies.

CCOP(=O)(OCC)C(N[C@@H](Cc1ccccc1)[C@H](O)CN(CC(C)C)S(=O)(=O)c1ccc(OC)cc1)c1ccc(C)cc1 ; strain: ROD ; method: MTT ; result: >2.47 µg/mL
CCc1c(C(=O)c2cccc(C#N)c2)n(Cc2cccc(C#N)c2)c(=O)[nH]c1=O ; strain: IIIB ; method: MTT ; result: 0.2 µM
CCCS(=O)(=O)NC(=O)c1[nH]c2ccc(Cl)cc2c1S(=O)(=O)c1cc(C)cc(C)c1 ; strain: IIIB ; method: MTT ; result: 0.36 µM
CNc1nc(Nc2ccc(C#N)cc2)nc(Oc2ccc3ccccc3c2)c1C ; strain: IIIB ; mutations: WT ; method: MTT ; result: 0.09 µM
Cc1ccc(C(O)(c2c(C)c(=O)[nH]c(=O)n2COCc2ccccc2)C(C)C)cc1 ; strain: IIIB ; method: MTT ; result: >155 µM
N#CC1=CC2Nc3ccccc3C2N(c2ccc(F)c([N+](=O)[O-])c2)C1=O ; strain: LAI ; method: cytopathic effect / MTT ; result: 1–32 µM
COC(=O)[C@H](C)NP(=O)(C[C@H]1O[C@@H](n2cc(C)c(=O)[nH]c2=O)C[C@@H]1N=[N+]=[N-])O[C@H]1C[C@H](n2cc(C)c(=O)[nH]c2=O)O[C@@H]1CO ; strain: IIIB ; method: cytopathic effect ; result: 0.34 µg/mL
CN1c2ccccc2C2C1C=CC(=O)N2c1ccc(-c2noc(C3CC3)n2)cc1 ; strain: LAI ; method: cytopathic effect / MTT ; result: 1–32 µM
C=C(c1cc(OC)cc(OC)c1)c1c(C)c(=O)[nH]c(=O)n1COCc1ccccc1 ; strain: IIIB ; mutations: L100I ; method: MTT ; result: 8.67 µM
CNc1cc(Oc2ccc3cc(Br)ccc3c2)nc(Nc2ccc(C#N)cc2)n1 ; strain: IIIB ; mutations: K103N + Y181C ; method: MTT ; result: >182 µM
Cc1c(C(C)(O)c2cccc(F)c2)n(COCc2ccccc2)c(=O)[nH]c1=O ; strain: IIIB ; method: MTT ; result: 46.23 µM
CCOP(=O)(OCC)C(N[C@@H](Cc1ccccc1)[C@@H](O)CN(CC(C)C)S(=O)(=O)c1ccc(OC)cc1)c1ccccn1 ; strain: ROD ; method: MTT ; result: >13.93 µg/mL
CCCCCCCCCCCCO[C@@H]1O[C@H](COS(=O)(=O)O)[C@@H](OS(=O)(=O)O)[C@H](O[C@@H]2O[C@H](COS(=O)(=O)O)[C@@H](OS(=O)(=O)O)[C@H](O[C@@H]3O[C@H](COS(=O)(=O)O)[C@@H](OS(=O)(=O)O)[C@H](O[C@@H]4O[C@H](COS(=O)(=O)O)[C@@H](OS(=O)(=O)O)[C@H](OS(=O)(=O)O)[C@H]4OS(=O)(=O)O)[C@H]3OS(=O)(=O)O)[C@H]2OS(=O)(=O)O)[C@H]1OS(=O)(=O)O ; strain: IIIB ; method: cytopathic effect / MTT ; result: 5.8 µg/mL
Clc1ccc(-c2nnc3sc(-c4cccnc4)nn23)cc1Cl ; strain: IIIB ; method: MTT ; result: >80.05 µg/mL
CCOP(=O)(OCC)C(N[C@@H](Cc1ccccc1)[C@@H](O)CN(CC(C)C)S(=O)(=O)c1ccc(OC)cc1)c1ccc(C)cc1 ; strain: IIIB ; method: MTT ; result: >4.94 µg/mL
CCOCn1c(C(=O)c2cccc(C#N)c2)c(CC)c(OC)nc1=O ; strain: IIIB ; mutations: EFV ; method: MTT ; result: >100 µM
Cc1cccc(C(C)c2c(C(C)C)c(=O)[nH]c(=O)n2COCc2ccccc2)c1 ; strain: IIIB ; mutations: L100I ; method: MTT ; result: 1.07 µM
CCc1c(Cl)nc(Nc2ccc(C#N)cc2)nc1Oc1ccc2ccccc2c1Cl ; strain: IIIB ; mutations: WT ; method: MTT ; result: 0.129 µM
CCC(c1cccc(C)c1)c1c(C)c(=O)[nH]c(=O)n1COCc1ccccc1 ; strain: IIIB ; method: MTT ; result: >32.84 µM
CC1CCC(O[C@@H]2O[C@H](COS(=O)(=O)O)[C@@H](OS(=O)(=O)O)[C@H](O[C@@H]3O[C@H](COS(=O)(=O)O)[C@@H](OS(=O)(=O)O)[C@H](O[C@@H]4O[C@H](COS(=O)(=O)O)[C@@H](OS(=O)(=O)O)[C@H](O[C@@H]5O[C@H](COS(=O)(=O)O)[C@@H](OS(=O)(=O)O)[C@H](O[C@@H]6O[C@H](COS(=O)(=O)O)[C@@H](OS(=O)(=O)O)[C@H](OS(=O)(=O)O)[C@H]6OS(=O)(=O)O)[C@H]5OS(=O)(=O)O)[C@H]4OS(=O)(=O)O)[C@H]3OS(=O)(=O)O)[C@H]2OS(=O)(=O)O)CC1 ; strain: IIIB ; method: cytopathic effect / MTT ; result: 0.97 µg/mL
Oc1ccc(-c2nnc3sc(-c4cccs4)nn23)c(Cl)c1Cl ; strain: IIIB ; method: MTT ; result: >92.7 µg/mL
COc1cccc2c1nc(-c1ccccc1F)n2Cc1ccncc1 ; strain: IIIB ; result: 10.9 µg/mL
Cc1cc(C)cc(S(=O)(=O)c2c(C(=O)NS(=O)(=O)c3ccc(F)cc3)[nH]c3ccc(Cl)cc23)c1 ; strain: IIIB ; method: MTT ; result: 3.23 µM
CCCCCCCCO[C@@H]1O[C@H](COS(=O)(=O)O)[C@@H](OS(=O)(=O)O)[C@H](O[C@@H]2O[C@H](COS(=O)(=O)O)[C@@H](OS(=O)(=O)O)[C@H](O[C@@H]3O[C@H](COS(=O)(=O)O)[C@@H](OS(=O)(=O)O)[C@H](O[C@@H]4O[C@H](COS(=O)(=O)O)[C@@H](OS(=O)(=O)O)[C@H](O[C@@H]5O[C@H](COS(=O)(=O)O)[C@@H](OS(=O)(=O)O)[C@H](OS(=O)(=O)O)[C@H]5OS(=O)(=O)O)[C@H]4OS(=O)(=O)O)[C@H]3OS(=O)(=O)O)[C@H]2OS(=O)(=O)O)[C@H]1OS(=O)(=O)O ; strain: IIIB ; method: cytopathic effect / MTT ; result: 1.1 µg/mL
CCc1c(NC)nc(Nc2ccc(C#N)cc2)nc1Oc1ccc2cc(C#N)ccc2c1Br ; strain: IIIB ; mutations: K103N + Y181C ; method: MTT ; result: 2.9 µM
CC(C)[C@H](NC(=O)OCc1ccccn1)C(=O)N[C@@H](Cc1ccccc1)[C@@H](O)C[C@H](Cc1ccccc1)NC(=O)OCc1cccnc1 ; strain: NL4-3 ; mutations: PR-V82T ; method: p24 ; result: <1.5 µM
Oc1ccc(-c2nnc3sc(-c4cccnc4)nn23)c(Cl)c1Cl ; strain: IIIB ; method: MTT ; result: >80.05 µg/mL
COCCOCCOCCOCCO[C@@H]1O[C@H](COS(=O)(=O)O)[C@@H](OS(=O)(=O)O)[C@H](O[C@@H]2O[C@H](COS(=O)(=O)O)[C@@H](OS(=O)(=O)O)[C@H](O[C@@H]3O[C@H](COS(=O)(=O)O)[C@@H](OS(=O)(=O)O)[C@H](O[C@@H]4O[C@H](COS(=O)(=O)O)[C@@H](OS(=O)(=O)O)[C@H](O[C@@H]5O[C@H](COS(=O)(=O)O)[C@@H](OS(=O)(=O)O)[C@H](OS(=O)(=O)O)[C@H]5OS(=O)(=O)O)[C@H]4OS(=O)(=O)O)[C@H]3OS(=O)(=O)O)[C@H]2OS(=O)(=O)O)[C@H]1OS(=O)(=O)O ; strain: IIIB ; method: cytopathic effect / MTT ; result: 88 µg/mL
COc1cccc2c1nc(-c1ccccc1F)n2Cc1c(C)cccc1C ; strain: IIIB ; result: 0.005 µg/mL
CCc1c(Cl)nc(Nc2ccc(C#N)cc2)nc1Oc1ccc2cc(C#N)ccc2c1Br ; strain: IIIB ; mutations: K103N + Y181C ; method: MTT ; result: 49.33 µM
Cc1cc(C)cc(S(=O)(=O)c2c(C(=O)NS(=O)(=O)c3ccccc3)[nH]c3ccc(Cl)cc23)c1 ; mutations: E138K ; method: MTT ; result: 1.2 µM
CN[C@@H]1[C@H](O[C@@H]2OC[C@@H](O)[C@H](O)[C@H]2O)[C@@H](O)[C@H](O[C@H]2c3cc(C)c(C(=O)N[C@H](C)C(=O)O)c(O)c3-c3c(cc4c(c3O)C(=O)c3cc(OC)cc(O)c3C4=O)[C@@H]2O)O[C@@H]1C ; strain: NL4-3 ; method: MTS ; result: 3.3 µM
N#Cc1cc2[nH]c3ccccc3c2n(-c2ccc([N+](=O)[O-])cc2)c1=O ; strain: C ; mutations: RT-L100I K103N ; method: cytopathic effect / MTT ; result: 2.51 µM
[O-][n+]1onc2ncnc(N3CC[N+]4(CC3)CC[N+]3(CCN(c5ncnc6no[n+]([O-])c56)CC3)CC4)c21 ; strain: N119 nevirapine-resistant (RT Y181C) ; mutations: RT-Y181C ; method: cytopathic effect / XTT ; result: 31.7 µM
CNc1nc(Nc2ccc(C#N)cc2)nc(Oc2ccc3ccccc3c2Br)c1C(C)C ; strain: IIIB ; mutations: K103N + Y181C ; method: MTT ; result: 6.31 µM
COc1cccc2c1nc(-c1ccccc1F)n2Cc1cccs1 ; strain: IIIB ; result: 0.011 µg/mL
CCOP(=O)(OCC)C(N[C@@H](Cc1ccccc1)[C@H](O)CN(CC(C)C)S(=O)(=O)c1ccc(OC)cc1)c1ccc([N+](=O)[O-])cc1 ; strain: ROD ; method: MTT ; result: >14.24 µg/mL
Clc1ccc(-c2nn3c(-c4ccc(Cl)c(Cl)c4)nnc3s2)cc1Cl ; strain: IIIB ; method: MTT ; result: >67.8 µg/mL
CC(C)c1c(C(C)c2ccc(F)cc2)n(COCc2ccccc2)c(=O)[nH]c1=O ; strain: IIIB ; mutations: E138K ; method: MTT ; result: 11.9 µM
Nc1ccn([C@H]2CC[C@@H](CO)O2)c(=O)n1 ; mutations: L100I ; method: MTT ; result: 0.33 µM
Nn1c(-c2ccc(O)c(Br)c2)n[nH]c1=S ; strain: IIIB ; method: MTT ; result: >75.4 µg/mL
CCOCn1c(C(=O)c2cccc(C#N)c2)c(CC)c(=O)[nH]c1=O ; strain: IIIB ; mutations: EFV ; method: MTT ; result: >100 µM
Cc1cc(C)cc(S(=O)(=O)c2c(C(=O)NS(=O)(=O)c3ccc(F)cc3F)[nH]c3ccc(Cl)cc23)c1 ; mutations: F227L + V106A ; method: MTT ; result: 7.4 µM
COc1ccc(C(C)c2c(C)c(=O)[nH]c(=O)n2COCc2ccccc2)cc1OC ; strain: IIIB ; method: MTT ; result: >186 µM
CCCCO[C@@H]1O[C@H](COS(=O)(=O)O)[C@@H](OS(=O)(=O)O)[C@H](O[C@@H]2O[C@H](COS(=O)(=O)O)[C@@H](OS(=O)(=O)O)[C@H](O[C@@H]3O[C@H](COS(=O)(=O)O)[C@@H](OS(=O)(=O)O)[C@H](O[C@@H]4O[C@H](COS(=O)(=O)O)[C@@H](OS(=O)(=O)O)[C@H](O[C@@H]5O[C@H](COS(=O)(=O)O)[C@@H](OS(=O)(=O)O)[C@H](OS(=O)(=O)O)[C@H]5OS(=O)(=O)O)[C@H]4OS(=O)(=O)O)[C@H]3OS(=O)(=O)O)[C@H]2OS(=O)(=O)O)[C@H]1OS(=O)(=O)O ; strain: IIIB ; method: cytopathic effect / MTT ; result: 3.4 µg/mL
O=C1CSc2nnc(-c3ccc(Cl)c(Cl)c3)n2N1 ; strain: IIIB ; method: MTT ; result: >35.23 µg/mL
N#CC1=CC2C(c3ccccc3N2CCN2CCCCC2)N(c2ccc(C#N)cc2)C1=O ; strain: LAI ; method: cytopathic effect / MTT ; result: 1–32 µM
Cc1c(C(C)(O)c2cccc(C(F)(F)F)c2)n(COCc2ccccc2)c(=O)[nH]c1=O ; strain: IIIB ; method: MTT ; result: >38.4 µM
CCCCCCCCO[C@@H]1O[C@H](COS(=O)(=O)O)[C@@H](OS(=O)(=O)O)[C@H](O[C@@H]2O[C@H](COS(=O)(=O)O)[C@@H](OS(=O)(=O)O)[C@H](O[C@@H]3O[C@H](COS(=O)(=O)O)[C@@H](OS(=O)(=O)O)[C@H](O[C@@H]4O[C@H](COS(=O)(=O)O)[C@@H](OS(=O)(=O)O)[C@H](OS(=O)(=O)O)[C@H]4OS(=O)(=O)O)[C@H]3OS(=O)(=O)O)[C@H]2OS(=O)(=O)O)[C@H]1OS(=O)(=O)O ; strain: IIIB ; method: cytopathic effect / MTT ; result: 25 µg/mL
CCOP(=O)(N[C@@H](Cc1ccccc1)[C@H](O)CN(CC(C)C)S(=O)(=O)c1ccc(OC)cc1)OCC ; strain: IIIB ; method: MTT ; result: >7.77 µg/mL
Oc1ccc(-c2nnc3sc(-c4ccc(O)c(Cl)c4Cl)nn23)cc1Br ; strain: IIIB ; method: MTT ; result: >4.12 µg/mL
COc1ccc(Cn2c(-c3ccccc3F)nc3c(OC)cccc32)cc1 ; strain: IIIB ; result: 2.1 µg/mL
Cc1cc(C)cc(S(=O)(=O)c2c(C(=O)NS(=O)(=O)C(F)(F)F)[nH]c3ccc(Cl)cc23)c1 ; mutations: L100I ; method: MTT ; result: 10.02 µM

The last 6 rows once more:

compound | strain | mutations | method | result
Cc1c(C(C)(O)c2cccc(C(F)(F)F)c2)n(COCc2ccccc2)c(=O)[nH]c1=O | IIIB | - | MTT | >38.4 µM
CCCCCCCCO[C@@H]1O[C@H](COS(=O)(=O)O)[C@@H](OS(=O)(=O)O)[C@H](O[C@@H]2O[C@H](COS(=O)(=O)O)[C@@H](OS(=O)(=O)O)[C@H](O[C@@H]3O[C@H](COS(=O)(=O)O)[C@@H](OS(=O)(=O)O)[C@H](O[C@@H]4O[C@H](COS(=O)(=O)O)[C@@H](OS(=O)(=O)O)[C@H](OS(=O)(=O)O)[C@H]4OS(=O)(=O)O)[C@H]3OS(=O)(=O)O)[C@H]2OS(=O)(=O)O)[C@H]1OS(=O)(=O)O | IIIB | - | cytopathic effect / MTT | 25 µg/mL
CCOP(=O)(N[C@@H](Cc1ccccc1)[C@H](O)CN(CC(C)C)S(=O)(=O)c1ccc(OC)cc1)OCC | IIIB | - | MTT | >7.77 µg/mL
Oc1ccc(-c2nnc3sc(-c4ccc(O)c(Cl)c4Cl)nn23)cc1Br | IIIB | - | MTT | >4.12 µg/mL
COc1ccc(Cn2c(-c3ccccc3F)nc3c(OC)cccc32)cc1 | IIIB | - | - | 2.1 µg/mL
Cc1cc(C)cc(S(=O)(=O)c2c(C(=O)NS(=O)(=O)C(F)(F)F)[nH]c3ccc(Cl)cc23)c1 | - | L100I | MTT | 10.02 µM

a–b is a range or a potency band. Blank or dashed fields: not listed here. ECn is the concentration giving n% inhibition of infection, replication or growth.